Source: patent publication US20170233441A1

Legend:
BG505 SOSIP.664 Trimer = test: SPR; 2G12 capture
BG505 SOSIP.664 [1] = test: SPR
BG505 SOSIP.664 [2] = test: BLI

Substance	Kd (BG505 SOSIP.664 Trimer) [nM]	Kd (BG505 SOSIP.664 [1]) [nM]	Kd (BG505 SOSIP.664 [2]) [nM]
PGT145	22.8	–	–
8ANC195	–	9.54	–
VRC26.09	–	22.9	40.3
b12	–	> 1000	> 4000
PGT128	–	16.2	–
